Measurements reported in PubChem BioAssay AID1224833 (University of Georgia, 2016).

Screen: 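Host factors restraining rotavirus as candidate antiviral genes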 (primary screen)
Cells: monkey MA104 kidney cells
Reagents: siRNA pool against human genes, 50 nM
Duration: 48 h knock-down before infection; read 24 h after infection
Challenge: infection with rotavirus strain RV3 two days after transfection; infectious dose for this stage not given
Measured: 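Rotavirus antigen per well by fluorescent immunoassay, normalised to non-targeting control wells on each plate and given as a standard z-score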
Scale: z-score vs non-targeting control: higher = more rotavirus replication than with non-targeting control
Active means: In these data the active calls have z-score vs non-targeting control at about -1 or lower, or at about 1 or higher
Meaning of the calls: active = z-score beyond 1 either way; inactive = z-score within 1 of zero
In all, the deposit lists about 12,000 reagents; shown is a random part of them. Over the whole deposit, about 5,600 (46%) got an active call. 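Active calls cover z-scores past 1 in both directions, so they include lowered as well as raised rotavirus replication.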

gene | z-score vs non-targeting control | call
RAB29 | -1.23 | active
GRM7 | -0.658 | inactive
CLN8 | -1.03 | active
MICAL1 | -0.157 | inactive
SHROOM4 | 1.39 | active
SAMSN1 | -0.538 | inactive
HNRNPA1 | 0.98 | inactive
CENPL | 1.38 | active
ANKRD20A2P | -0.186 | inactive
ETV3 | 0.826 | inactive
WDR90 | -2.24 | active
SEC16B | -0.392 | inactive
MRPL33 | -1.23 | active
SAYSD1 | -0.248 | inactive
QRSL1 | -1.68 | active
ATP5F1C | 2.67 | active
INSL6 | -0.538 | inactive
SMCO4 | -1.41 | active
RSPO2 | 1.64 | active
SLC26A5 | -2.66 | active
TTC21A | -1.59 | active
ROPN1 | -2.33 | active
ARHGEF5 | -0.171 | inactive
EHBP1 | 0.64 | inactive
POR | 1.81 | active
DOP1B | 0.637 | inactive
TBCCD1 | -2.26 | active
SRSF6 | 0.88 | inactive
RRP12 | 1.61 | active
FZD4 | -0.524 | inactive
DEFB103A | 1.32 | active
PF4 | -0.886 | inactive
VMA22 | 1.61 | active
PHGDH | 0.153 | inactive
VLDLR | 3.05 | active
OR4K15 | 0.638 | inactive
MAP7D2 | 2.25 | active
TMEM258 | 0.994 | inactive
SNX18 | 0.931 | inactive
FMR1 | -1.48 | active
IGFL2 | 0.41 | inactive
GSDMC | -1.98 | active
DAG1 | -1.43 | active
DIPK2A | -1.06 | active
GPKOW | -0.67 | inactive
AMT | -2.14 | active
TPD52L1 | -1.12 | active
SMARCD3 | 2.43 | active
NOL11 | 0.472 | inactive
SLC17A7 | -1.19 | active
SECTM1 | -1.83 | active
APOE | 2.11 | active
GRPEL1 | -0.156 | inactive
APMAP | -0.81 | inactive
MFRP | 0.14 | inactive
RABL3 | 0.17 | inactive
TEX9 | -1.7 | active
PERP | 0.694 | inactive
SLC17A8 | -2.32 | active
CHERP | 0.719 | inactive
NDST3 | 1.75 | active
TRIAP1 | 0.889 | inactive
QTMAN | -1.26 | active
GLMP | 1.28 | active
PABIR1 | 0.342 | inactive
SPIN2B | -0.621 | inactive
DBNDD1 | 0.476 | inactive
ZBTB44 | -2.24 | active
SNRNP27 | -0.345 | inactive
G0S2 | -2.63 | active
ACER2 | 0.273 | inactive
OR5K3 | 0.177 | inactive
LRIG3 | -0.755 | inactive
WFDC9 | -1.08 | active
CPT2 | -0.604 | inactive
IFI44L | -1.13 | active
RPL7A | -0.926 | inactive
PPM1N | -0.824 | inactive
C1QTNF4 | -2 | active
COL1A1 | 2.35 | active
NHSL3 | -1.96 | active
PROM2 | -1.1 | active
NOSIP | -1.09 | active
HTN1 | -0.61 | inactive
ZP2 | 0.306 | inactive
HEATR4 | -0.502 | inactive
TIMP4 | -0.937 | inactive
IFT27 | -2.5 | active
JAKMIP2 | -1.01 | active
HMGCL | -1.8 | active
UTP20 | 0.566 | inactive
TNP2 | 0.572 | inactive
SLAMF9 | 0.234 | inactive
EMD | -1.37 | active
SURF1 | -0.599 | inactive
OR5H2 | -0.29 | inactive
CD1B | -1.53 | active
IL23A | 0.159 | inactive
TXNRD2 | 0.501 | inactive
ALG12 | -1.01 | active
PABPC5 | -0.317 | inactive
TBL2 | -1.3 | active
CERS1 | -0.444 | inactive
PLEKHH2 | 1.37 | active
CDHR2 | -0.227 | inactive
ZNF530 | -0.694 | inactive
ERAL1 | 1.16 | active
IFT22 | 0.19 | inactive
CHST5 | 0.782 | inactive
ORC6 | -1.08 | active

7 entries from above, ordered by “z-score vs non-targeting control”, high to low:
gene | z-score vs non-targeting control | call
POR | 1.81 | active
SRSF6 | 0.88 | inactive
EHBP1 | 0.64 | inactive
DOP1B | 0.637 | inactive
ARHGEF5 | -0.171 | inactive
TBCCD1 | -2.26 | active
ROPN1 | -2.33 | active
